# Measurements reported in PubChem BioAssay AID624099 (ICCB-Longwood, 2012).
# Assay: 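Human genes that papillomavirus E2 requires to repress the HPV18 LCR promoter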 (primary screen)
# Cells: human C33A cervical carcinoma cells (HPV-negative) stably expressing BPV1 E2 and an HPV18 LCR luciferase reporter
# Knock-down reagent: siRNA pool against human genes, 40 nM
# Timing: 72 h
# Measured: 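HPV18 LCR reporter light per well, converted to plate-wise z-scores that exclude control wells, and averaged over triplicate plates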
# Scale: mean z-score and z-score: higher = stronger reporter signal, weaker E2 silencing
# Hit rule: 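Mean z ≥ 2 together with z ≥ 2 in two or more of the three replicates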
# In all, the deposit lists about 21,000 reagents; this is a random part of them. In the full data, 497 (2.4%) were called active. 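Higher z means weaker E2 silencing; only reporter increases were scored, and knock-downs that hurt cell survival may mask genuine repressor factors.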 Unmarked entries are inactive.
gene symbol,mean z-score,"z-score, replicate A","z-score, replicate B","z-score, replicate C"
HMOX2,-1.65,-1.76,-1.7,-1.49
TEX46,1.23,1.67,1.01,1
RNF185,-1.59,-1.43,-1.79,-1.55
MAPK8IP2,0.49,0.04,0.47,0.96
ASB3,-0.76,-0.97,-0.69,-0.62
RNF103,1.05,1.06,1.06,1.02
NPEPL1,0.29,0.5,0.25,0.13
APOB,-0.53,-0.18,-0.8,-0.63
JMJD8,0.8,0.58,0.75,1.07
SLITRK3,-0.02,0.01,0.11,-0.17
ACSL4,-0.23,-0.25,-0.2,-0.24
METTL21EP,-1.61,-1.38,-1.67,-1.78
GSDMB,-0.98,-1.32,-1.05,-0.56
RGN,0.34,0.24,0.36,0.43
RTN4RL2,-1.34,-1.45,-1.2,-1.37
ADD3,0.16,0.01,0.14,0.32
TAAR6,-0.2,0.06,-0.49,-0.18
HMGN1,1.17,1.35,1.13,1.03
WNK2,-1.55,-1.82,-1.65,-1.18
TM2D1,0.41,0.66,0.3,0.29
LOC388746 (retired record),0.71,0.89,0.49,0.74
PRDX6,0.32,0.34,0.26,0.36
GPR141,0.64,0.78,0.75,0.39

3 entries from above in another layout.
{"gene symbol": "RNF103", "mean z-score": 1.05, "z-score, replicate A": 1.06, "z-score, replicate B": 1.06, "z-score, replicate C": 1.02}
{"gene symbol": "NPEPL1", "mean z-score": 0.29, "z-score, replicate A": 0.5, "z-score, replicate B": 0.25, "z-score, replicate C": 0.13}
{"gene symbol": "APOB", "mean z-score": -0.53, "z-score, replicate A": -0.18, "z-score, replicate B": -0.8, "z-score, replicate C": -0.63}
